Active and inactive are the calls of the source.
Columns and labels:
[1] = system: Candida albicans; test: Antifungal activity against Candida albicans by microdilution test; type: functional
[2] = system: Candida parapsilosis; test: Antifungal activity against Candida parapsilosis by microdilution test; type: functional
[3] = system: Nakaseomyces glabratus; test: Antifungal activity against Candida glabrata by microdilution test; type: functional
[4] = system: Pichia kudriavzevii; test: Antifungal activity against Candida krusei by microdilution test; type: functional
[5] = system: Meyerozyma guilliermondii; test: Antifungal activity against Candida guilliermondii by microdilution test; type: functional
[6] = system: Cryptococcus neoformans; test: Antifungal activity against Cryptococcus neoformans by microdilution test; type: functional
[7] = Antifungal activity against Aspergillus fumigates by microdilution test; type: functional
[8] = system: Aspergillus flavus; test: Antifungal activity against Aspergillus flavus by microdilution test; type: functional
[9] = system: Aspergillus niger; test: Antifungal activity against Aspergillus niger by microdilution test; type: functional
[10] = system: Aspergillus nidulans; test: Antifungal activity against Aspergillus nidulans by microdilution test; type: functional, organism-based
[11] = system: Aspergillus terreus; test: Antifungal activity against Aspergillus terreus by microdilution test; type: functional
[12] = Antifungal activity against Cladophialophora carrionii by microdilution test; type: functional
[13] = system: Exophiala spinifera; test: Antifungal activity against Exophiala spinifera by microdilution test; type: functional
[14] = Antifungal activity against Exophiala oligosperma by microdilution test; type: functional
[15] = Antifungal activity against Exophiala xenobiotica by microdilution test; type: functional

Measured: Activity

ClCCN1c2ccccc2Sc2ccccc21
inactive: all assays above

Reference: ChEMBL document CHEMBL1649364, “Synthesis and antifungal activity of some substituted phenothiazines and related compounds” (2011)
